Experimental data as given in patent publication US20080292704A1 (published 2008).

Target: Hc (BoNT/A Hc with 6xHis tag) (Clostridium botulinum (C. Botulinum), …, UniProt P0DPI0 857-1296)

Binder | binding result
recombinant FcγRI ligand binding domain, 6xHis tagged (receptor) QVDTTKAVITLQPPWVSVFQEETVTLHCEVLHLPGSSSTQWFLNGTATQTSTPSYRITSASVNDSGEYRCQRGLSGRSDPIQLEIHRGWLLLQVSSRVFTEGEPLALRCHAWKDKLVYNVLYYRNGKAFKFFHWNSNLTILKTNISHNGTYHCSGMGKHRYTSAGISVTVKELFPAPVLNASVTSPLLEGNLVTLSCETKLLLQRPGLQLYFSFYMGSKTLRGRNTSSEYQILTARREDSGLYWCEAATEDGNVLKRSPELELQVLGLQLPTPVWFH | no binding
recombinant FcγRIIa ligand binding domain, 6xHis tagged (receptor) QAAAPPKAVLKLEPPWINVLQEDSVTLTCQGARSPESDSIQWFHNGNLIPTHTQPSYRFKANNNDSGEYTCQTGQTSLSDPVHLTVLSEWLVLQTPHLEFQEGETIMLRCHSWKDKPLVKVTFFQNGKSQKFSHLDPTFSIPQANHSHSGDYHCTGNIGYTLFSSKPVTITVQVPSMGSSSPMG | no binding
recombinant FcγRIIb ligand binding domain, 6xHis tagged (receptor) TPAAPPKAVLKLEPQWINVLQEDSVTLTCRGTHSPESDSIQWFHNGNLIPTHTQPSYRFKANNNDSGEYTCQTGQTSLSDPVHLTVLSEWLVLQTPHLEFQEGETIVLRCHSWKDKPLVKVTFFQNGKSKKFSRSDPNFSIPQANHSHSGDYHCTGNIGYTLYSSKPVTITVQAP | no binding
